Measurements: article PMC11988556, “Combined Cytotoxic Effects of the Fungicide Azoxystrobin and Common Food-Contaminating Mycotoxins” (Foods, 2025)

Experiments:
HepG2 cells [1] = experiment: resazurin reduction cytotoxicity assay, with CI-isobologram analysis of mixtures; format: cell-based, human
HepG2 cells [2] = experiment: MTT cytotoxicity assay, with CI-isobologram analysis of mixtures; format: cell-based, human

Row | SMILES | m (Hill coefficient of the dose-effect curve) (HepG2 cells [1]; resazurin method, HepG2, 24 h) | m (Hill coefficient of the dose-effect curve) (HepG2 cells [2]; MTT method, HepG2, 24 h) | m (Hill coefficient of the dose-effect curve) (HepG2 cells [1]) | m (Hill coefficient of the dose-effect curve) (HepG2 cells [2])
1 | CO/C=C(/C(=O)OC)c1ccccc1Oc1cc(Oc2ccccc2C#N)ncn1 [AZX, azoxystrobin] | 0.99 | 0.81 | – | –
2 | CC1=C[C@H]2O[C@@H]3[C@H](O)C[C@](C)([C@@]2(CO)[C@H](O)C1=O)[C@]31CO1 [DON, deoxynivalenol] | 0.90 | 0.69 | – | –
3 | CC(=O)OC[C@]12C[C@H](OC(=O)CC(C)C)C(C)=C[C@H]1O[C@@H]1[C@H](O)[C@@H](OC(C)=O)[C@@]2(C)[C@]12CO2 [T2, T-2 toxin] | – | – | 0.91 | 0.94
4 | C[C@@H]1Cc2c(Cl)cc(C(=O)N[C@@H](Cc3ccccc3)C(=O)O)c(O)c2C(=O)O1 [OTA, ochratoxin A] | 1.03 | 1.26 | – | –
